Compound potency records, mixed from different reports. Data source: NIAID ChemDB in PubChem.

Shared fields: tests in culture

ECn is the concentration giving n% inhibition of infection, replication or growth. An empty or dashed field is not shown. Neighbouring rows are from separate reports. Inhibition is in % at the dose shown (toxicity tests: loss of growth or viability). MIC50, MIC90 and the like: level of inhibition, or share of isolates inhibited.

| compound | conditions | method | tested at | endpoint | organism | strain | cell line | value |
|---|---|---|---|---|---|---|---|---|
| CC[C@H]1OC(=O)[C@H](C)[C@@H](O[C@H]2C[C@@](C)(OC)[C@@H](O)[C@H](C)O2)[C@H](C)[C@@H](O[C@@H]2O[C@H](C)C[C@H](N(C)C)[C@H]2O)[C@](C)(O)C[C@@H](C)CN(C)[C@H](C)[C@@H](O)[C@]1(C)O | - | cytopathic effect | 200 µg/mL | inhibition | Encephalitozoon cuniculi | - | MRC-5 fibroblasts | 50% |
| Nc1ncnc2c1ncn2[C@H]1CC[C@@H](CO)O1 | - | virus yield | 100 µM | inhibition | HIV-2 | LAV-2 | CEM | 99.9% |
| C[C@@H](Cn1cnc2c(N)nc(N)nc21)OCP(=O)(O)O | - | hybridisation | - | EC50 | Epstein-Barr virus | - | P3HR-1 | >20 µg/mL |
| N=C(N)c1ncn([C@@H]2O[C@H](CO)[C@@H](O)[C@H]2O)n1 | - | virus yield | 22 µg/mL | inhibition | Influenza A virus (H1N1) | A/NWS/33 | MDCK | 90% |
| Nc1ncnc2c1ncn2C[C@@H](CO)OCP(=O)(O)O | - | cytopathic effect | - | EC50 | Adenovirus | adenoid 75 (TYPE 5) | - | 8 µg/mL |
| N/C(=N\O)c1ccc(NC(=O)c2ccc(C(=O)Nc3ccc(/C(N)=N/O)cc3)cc2)cc1 | - | - | - | EC50 | Pneumocystis carinii | - | A549 | >100 µg/mL |
| CO[C@H]1/C=C/O[C@@]2(C)Oc3c(C)c(O)c4c(=O)c(c5oc6cc(N7CCN(CC(C)C)CC7)cc(=O)c6nc5c4c3=C2O)NC(=O)/C(C)=C\C=C\[C@H](C)[C@H](O)[C@@H](C)[C@@H](O)[C@@H](C)[C@H](OC(C)=O)[C@@H]1C | - | - | - | MIC | Staphylococcus aureus | Newman | - | 0.0078 µg/mL |
| CCCCN=C(N)c1ccc(N2CCCN(c3ccc(C(N)=NCCCC)cc3)CC2)cc1 | - | - | - | EC50 | Pneumocystis carinii | - | A549 | 0.186 µg/mL |
| NC(=O)c1ncn([C@H]2C=C[C@@H](CO)O2)n1 | - | plaque count | - | EC50 | Sandfly fever virus | - | - | 5 µg/mL |
| CCC(C)n1ncn(-c2ccc(N3CCN(c4ccc(OC[C@H]5CO[C@](Cn6cncn6)(c6ccc(Cl)cc6Cl)O5)cc4)CC3)cc2)c1=O | - | cytopathic effect | - | EC50 | Encephalitozoon cuniculi | - | MRC-5 fibroblasts | >1 µg/mL |
| N=C(N)c1ccc(OCc2ccc(COc3ccc(C(=N)N)cc3)cc2)cc1 | - | - | - | EC50 | Pneumocystis carinii | - | A549 | 0.786 µg/mL |
| Nc1nc2c(ncn2COCOCP(=O)(O)O)c(=O)[nH]1 | - | virus yield | - | EC90 | Parainfluenza virus | 14702 (TYPE 3) | - | 11 µg/mL |
| CC[C@H]1OC(=O)[C@H](C)[C@@H](O[C@H]2C[C@@](C)(OC)[C@@H](O)[C@H](C)O2)[C@H](C)[C@@H](O[C@@H]2O[C@H](C)C[C@H](N(C)C)[C@H]2O)[C@](C)(OC)C[C@@H](C)C(=O)[C@H](C)[C@@H](O)[C@]1(C)O | - | - | - | MIC90 | Staphylococcus aureus | 20 strains (methicillin-susceptible) | - | 16 µg/mL |
| Nc1ncnc2c1ncn2Cc1c(F)cccc1Cl | - | cytopathic effect | 15 µg/mL | inhibition | Encephalitozoon cuniculi | - | MRC-5 fibroblasts | 29% |
| N=C(N)c1ccc(NC(=O)CCCC(=O)Nc2ccc(C(=N)N)cc2)cc1 | - | - | - | EC50 | Pneumocystis carinii | - | A549 | 0.0013 µg/mL |
| Nc1[nH]c(=O)ncc1F | - | cytopathic effect | - | EC50 | Encephalitozoon cuniculi | - | MRC-5 fibroblasts | >100 µg/mL |
| CCN(C)CCNc1ncnc2c1ncn2C[C@H](C)OCP(=O)(O)O | - | hybridisation | - | EC50 | Epstein-Barr virus | - | P3HR-1 | 5 µg/mL |
| NC(=O)c1ncn([C@@H]2O[C@H](CO)[C@@H](O)[C@H]2O)n1 | - | neutral red | - | EC50 | Measles virus | Halonen | CV-1 | 1 µg/mL |
| COc1cc([C@@H]2c3cc4c(cc3[C@@H](O[C@@H]3O[C@@H]5CO[C@@H](C)O[C@H]5[C@H](O)[C@H]3O)[C@H]3COC(=O)[C@H]23)OCO4)cc(OC)c1O | 7 d | - | 1 µg/mL | inhibition | Pneumocystis carinii | - | - | 42% |
| O=C(O)P(=O)(O)O | 14 d | RT activity | 32 µM | inhibition | HIV-1 | IIIB | PBL | 72% |
| Nc1ccnc2c1ncn2[C@H]1C=C[C@@H](OCP(=O)(O)O)O1 | - | virus yield | - | EC90 | Adenovirus | adenoid 75 (TYPE 5) | - | 15 µg/mL |
| N/C(=N\O)c1ccc(N2CCN(c3ccc(/C(N)=N/O)cc3)CC2)cc1 | - | - | - | EC50 | Pneumocystis carinii | - | A549 | 3.3 µg/mL |
| C[C@H](Cn1cnc2c(N)ncnc21)OCP(=O)(O)O | - | hybridisation | - | EC50 | Epstein-Barr virus | - | P3HR-1 | 10 µg/mL |
| Nc1ccc(S(=O)(=O)Nc2ncccn2)cc1 | - | cytopathic effect | 2 µg/mL | inhibition | Encephalitozoon cuniculi | - | MRC-5 fibroblasts | 0% |
| CC(=O)O/N=C1/C[C@H](n2cc(C)c(=O)[nH]c2=O)O[C@@H]1CO | - | hybridisation | - | EC50 | Epstein-Barr virus | - | P3HR-1 | 0.5 µg/mL |
| C#CC[C@@H](C(=O)N[C@H](/C=C/C(=O)OCC)C[C@@H]1CCNC1=O)n1cccc(NC(=O)c2cc(C)on2)c1=O | - | cytopathic effect / XTT | 0.028 µM | inhibition | Rhinovirus | Serotype 36 | H1-HELA | 90% |
| O=P(O)(O)COCCn1cnc2c(NC3CCCCC3)ncnc21 | - | hybridisation | - | EC50 | Epstein-Barr virus | - | P3HR-1 | 4.8 µg/mL |
| CC[C@H](C)[C@H]1NC(=O)[C@@H](NC(=O)[C@@H](CC(C)C)NC)[C@@H](C)OC(=O)[C@H](Cc2ccc(OC)cc2)N(C)C(=O)[C@@H]2CCCN2C(=O)[C@H](CC(C)C)NC(=O)[C@@H](C)C(=O)[C@H](C(C)C)OC(=O)C[C@@H]1O | - | plaque count | 2.5 µg/mL | inhibition | Dengue virus | TYPE 3 | LLC-MK2 | 23.3% |
| CC(C)CNc1ncnc2c1ncn2CCOCP(=O)(O)O | - | hybridisation | - | EC50 | Epstein-Barr virus | - | P3HR-1 | 10 µg/mL |
| C=CC(=O)NCC(=O)N1C[C@H](Oc2nccc3ccc(Br)cc23)C[C@H]1C(=O)N[C@]1(C(=O)NS(=O)(=O)C2CC2)C[C@H]1C=C | - | luciferase | - | EC50 | Hepatitis C virus | 1b C159S | - | 1.288 µM |
| CC[C@H]1OC(=O)[C@H](C)[C@@H](O[C@H]2C[C@@](C)(OC)[C@@H](O)[C@H](C)O2)[C@H](C)[C@@H](O[C@@H]2O[C@H](C)C[C@H](N(C)C)[C@H]2O)[C@](C)(O)C[C@@H](C)/C(=N\OCOCCOC)[C@H](C)[C@@H](O)[C@]1(C)O | - | cytopathic effect | 100 µg/mL | inhibition | Encephalitozoon cuniculi | - | MRC-5 fibroblasts | 0% |
| C=CCNc1ncnc2c1ncn2CCOCP(=O)(O)O | - | hybridisation | - | EC50 | Epstein-Barr virus | - | P3HR-1 | 11 µg/mL |

The last 2 rows once more:

compound	conditions	method	tested at	endpoint	organism	strain	cell line	value
CC[C@H]1OC(=O)[C@H](C)[C@@H](O[C@H]2C[C@@](C)(OC)[C@@H](O)[C@H](C)O2)[C@H](C)[C@@H](O[C@@H]2O[C@H](C)C[C@H](N(C)C)[C@H]2O)[C@](C)(O)C[C@@H](C)/C(=N\OCOCCOC)[C@H](C)[C@@H](O)[C@]1(C)O	-	cytopathic effect	100 µg/mL	inhibition	Encephalitozoon cuniculi	-	MRC-5 fibroblasts	0%
C=CCNc1ncnc2c1ncn2CCOCP(=O)(O)O	-	hybridisation	-	EC50	Epstein-Barr virus	-	P3HR-1	11 µg/mL